Measurements from publication PMC9119080 (European journal of medicinal chemistry, 2021).

Tests used:
[1] = test system: HIV-2 (ROD)
[2] = test system: HIV-1
[3] = test system: HIV-1 (IIIB)

SMILES | SI ROD (CC50/EC50) [1] | late-stage effect [2] | action stage in HIV-1 life cycle [2] | SI IIIB (CC50/EC50) [3]
CN(C(=O)[C@H](Cc1ccccc1)NC(=O)c1cccc(C(=O)Nc2cccc(NC(=O)OC(C)(C)C)c2)c1)c1ccc2scnc2c1 [7s, tert-butyl(S)-(3-(3-((1-(benzo[d]thiazol-5-yl(methyl)amino)-1-oxo-3-phenylpropan-2-yl)carbamoyl)benzamido)phenyl) carbamate] | >6.81 | – | – | –
Cc1[nH]c2ccccc2c1CC(=O)N[C@@H](Cc1ccccc1)C(=O)N(C)c1ccccc1 [PF74, reference compound] | – | no late-stage effect | – | –
CN(C(=O)[C@H](Cc1ccccc1)NC(=O)c1cccc(C(=O)Nc2ccc(N)cc2)c1)c1ccc2scnc2c1 [7u, (S)eN1-(4-aminophenyl)-N3-(1-(benzo[d]thiazol-5-yl(methyl)amino)-1-oxo-3-phenylpropan-2-yl)isophthalamide] | – | – | function at both the early and late stages | –
CN(C(=O)[C@H](Cc1ccccc1)NC(=O)c1cccc(C(=O)Nc2ccc(NC(=O)OC(C)(C)C)cc2)c1)c1ccc2scnc2c1 [7r, tert-butyl(S)-(4-(3-((1-(benzo[d]thiazol-5-yl(methyl)amino)-1-oxo-3-phenylpropan −2-yl)carbamoyl)benzamido)phenyl) carbamate] | <1 | – | – | <1
CN(C(=O)[C@H](Cc1ccccc1)NC(=O)c1cccc(C(=O)Nc2ccc(C(F)(F)F)cc2)c1)c1ccc2scnc2c1 [7i, (S)–N1-(1-(benzo[d]thiazol-5-yl(methyl)amino)-1-oxo-3-phenylpropan-2-yl)-N3-(4-(trifluoromethyl)phenyl)isophthalamide] | <1 | – | – | ≤2.23
CN(C(=O)[C@H](Cc1ccccc1)NC(=O)c1cccc(C(=O)Nc2ccccc2NC(=O)OC(C)(C)C)c1)c1ccc2scnc2c1 [7t, tert-butyl(S)-(2-(3-((1-(benzo[d]thiazol-5-yl(methyl)amino)-1-oxo-3-phenylpropan-2-yl)carbamoyl)benzamido)phenyl) carbamate] | >78.26 | – | – | >1.39
